Compound potency records, mixed from different reports. Data source: NIAID ChemDB in PubChem.

Shared fields: tests in culture; species: Parainfluenza virus

a–b is a range or a potency band. ECn: concentration that inhibits the pathogen or its effect by n%. Lines come from different laboratories, so protocols vary.

O=C(NCCc1ccccc1)C1=Cc2ccncc2CC1 ; strain or isolate: 14702 (TYPE 3) ; cell line: MA-104 ; method: cytopathic effect ; measure: EC50 ; result: >344 µM
Cc1nc(CC(=O)NN)nn1C ; strain or isolate: TYPE 3 ; measure: MIC ; result: >80 µg/mL
Nc1nc2c(ccn2[C@@H]2C[C@H](CO)[C@H](O)[C@@H]2O)c(=O)[nH]1 ; measure: MIC ; result: >100 µg/mL
CCn1nc(CC(=O)NN=C(C)C)nc1C ; strain or isolate: TYPE 3 ; measure: MIC ; result: >80 µg/mL
Cc1cn([C@@H]2O[C@@H](CO)[C@H](O)[C@H]2O)c(=O)[nH]c1=O ; strain or isolate: TYPE 3 ; cell line: VERO B ; method: cytopathic effect ; measure: EC50 ; result: >1000 µM
NS(=O)(=O)c1ncnc2c1ncn2[C@H]1C[C@H](O)[C@@H](CO)O1 ; strain or isolate: TYPE 3 ; method: cytopathic effect ; measure: EC50 ; result: >320 µM
CCn1nc(Cc2n[nH]c(=S)o2)nc1C ; strain or isolate: TYPE 3 ; measure: MIC ; result: >400 µg/mL
O=P1(O)OCC2O[C@@H](n3cnc4c(=S)nc[nH]c43)[C@H](O)C2O1 ; strain or isolate: TYPE 3 ; measure: MIC ; result: 3.2–10 µg/mL
Cc1cn([C@H]2O[C@H](CO)[C@@H](N=[N+]=[N-])[C@H]2F)c(=O)nc1N ; strain or isolate: TYPE 3 ; cell line: VERO B ; method: cytopathic effect ; measure: EC50 ; result: >400 µg/mL
Nc1nccc2c1ncn2[C@@H]1C=C[C@@H](O)[C@H]1O ; strain or isolate: TYPE 3 ; measure: MIC ; result: 2 µg/mL
CCc1nc(CC(=O)NN=C(C)C)nn1CC ; strain or isolate: TYPE 3 ; measure: MIC ; result: >80 µg/mL
Nc1ccn([C@H]2C[C@@H](O)[C@H](CO)O2)c(=O)n1 ; strain or isolate: TYPE 3 ; cell line: VERO B ; method: cytopathic effect ; measure: EC50 ; result: >10 µM
Nc1nccc2c1ncn2[C@@H]1C[C@H](CO)[C@@H](O)[C@H]1O ; strain or isolate: TYPE 3 ; measure: MIC ; result: 0.2 µg/mL
S=c1[nH]nc(Cc2nc3n(n2)CCCCC3)o1 ; strain or isolate: TYPE 3 ; measure: MIC ; result: >80 µg/mL
Cc1cc(=O)c2c(O)c(C)c(O[C@H]3O[C@H](CO)[C@@H](O)[C@H](O)[C@H]3O)c(C)c2o1 ; strain or isolate: TYPE 3 ; cell line: HEP-2 ; method: cytopathic effect ; measure: EC50 ; result: 13.8 µg/mL
Nc1ncnc2c1ncn2[C@H]1C[C@@H](O)[C@H](CO)O1 ; strain or isolate: TYPE 3 ; cell line: VERO B ; method: cytopathic effect ; measure: EC50 ; result: >1000 µM
NS(=O)(=O)c1ncnc2c1ncn2[C@@H]1O[C@H](CO)[C@@H](O)[C@@H]1O ; strain or isolate: TYPE 3 ; method: cytopathic effect ; measure: EC50 ; result: >320 µM
CC(C)CS[C@@H]1C=C[C@H](n2cnc3c(N)ncnc32)C1 ; strain or isolate: TYPE 3 ; cell line: HeLa ; method: cytopathic effect ; measure: EC50 ; result: >3.2 µg/mL
NSc1ncnc2c1ncn2[C@@H]1O[C@H](CO)[C@@H](O)[C@@H]1O ; strain or isolate: TYPE 3 ; method: cytopathic effect ; measure: EC50 ; result: >320 µM
[N-]=[N+]=N[C@H]1[C@@H](F)[C@H](N2C=CC(N)NC2=O)O[C@@H]1CO ; strain or isolate: TYPE 3 ; cell line: VERO B ; method: cytopathic effect ; measure: EC50 ; result: >400 µg/mL

A second listing of 2 rows from above:

{"smiles": "Nc1nccc2c1ncn2[C@@H]1C[C@H](CO)[C@@H](O)[C@H]1O", "strain or isolate": "TYPE 3", "measure": "MIC", "result": "0.2 µg/mL"}
{"smiles": "Cc1cn([C@H]2O[C@H](CO)[C@@H](N=[N+]=[N-])[C@H]2F)c(=O)nc1N", "strain or isolate": "TYPE 3", "cell line": "VERO B", "method": "cytopathic effect", "measure": "EC50", "result": ">400 µg/mL"}